Measured values taken from patent US20240122867A1, “CORONAL PROTEIN-COATED NANOPARTICLES AND USES THEREOF” (UNIVERSITY OF CENTRAL FLORIDA RESEARCH FOUNDATION, INC., priority 2021, published 2024).

Test system: coronal proteins on NPs
Set-up: species or system mouse
Details: for V5 Sera_Nanoparticles Quantitative Value (Normalized Total Spectra): HBPE-NPs incubated 1 h with IAV day 5 (V5) mouse sera, 20:1 NP:sera, centrifuged and washed; for V5 Sera Alone (Control) Quantitative Value (Normalized Total Spectra): IAV day 5 (V5) mouse sera alone, no NPs (sera-only control)

B1: Zinc-alpha-2-glycoprotein (protein, UniProt Q64726 18-307, looked up)
Zinc-alpha-2-glycoprotein: QETGSYYLTFLYTGLSRPSKGFPRFQATAFLNDQAFFHYNSNSGKAEPVGPWSQVEGMEDWEKESQLQRAREEIFLVTLKDIMDYYKDTTGSHTFQGMFGCEITNNRSSGAVWRYAYDGEDFIEFNKEIPAWIPLDPAAANTKLKWEAEKVYVQRAKAYLEEECPEMLKRYLNYSRSHLDRIDPPTVTITSRVIPGGNRIFKCLAYGFYPQRISLHWNKANKKLAFEPERGVFPNGNGTYLSWAEVEVSPQDIDPFFCLIDHRGFSQSLSVQWDRTRKVKDENNVVAQPQ
- V5 Sera_Nanoparticles Quantitative Value (Normalized Total Spectra): 4.3517
- V5 Sera Alone (Control) Quantitative Value (Normalized Total Spectra): 3.7009

B2: BPI fold-containing family A member 2 (protein, UniProt P07743 21-235, looked up)
BPI fold-containing family A …: LLGELGSAVNNLKILNPPSEAVPQNLNLDVELLQQATSWPLAKNSILETLNTADLGNLKSFTSLNGLLLKINNLKVLDFQAKLSSNGNGIDLTVPLAGEASLVLPFIGKTVDISVSLDLINSLSIKTNAQTGLPEVTIGKCSSNTDKISISLLGRRLPIINSILDGVSTLLTSTLSTVLQNFLCPLLQYVLSTLNPSVLQGLLSNLLAGQVQLAL
- V5 Sera_Nanoparticles Quantitative Value (Normalized Total Spectra): 4.3517
- V5 Sera Alone (Control) Quantitative Value (Normalized Total Spectra): 26.832

B3: Carboxypeptidase N catalytic chain (protein, UniProt Q9JJN5 24-457, looked up)
Carboxypeptidase N catalytic …: RHHRYDDLVRTLYKVHNQCPDITRLYNIGRSVKGRYLYVLEFSDYPGIHEPLEPEVKYVGNMHGNEVLGRELLLQLSEFLCEEFRNRNQRILRLIQDTRIHILPSMNPDGYEVAAAQGPNMSGYLVGRNNANGVDLNRNFPDLNTYFYYNSKNGGPNHHLPLPDNWKSQVEPETRAVIQWIRSLNFVLSANMHGGAVVANYPYDKSLEHRFRGPHRTSNSPTPDDELFQTLAKVYSYAHGWMHQGWNCGDYFPDGITNGASWYSLSKGMQDFNYLHTNCFEITLELSCDKFPRQEELQREWLGNREALIQFLEQVHQGIKGMVLDENSNNLTGAVISVTGINHDVTSGEHGDYFRLLLPGTYSVTAKAPGYDPKTVTVTVGPAGPTVVDFQLKRSSSQVYPVQRAPGRGQGGRAKQPRTSRKKDPATKRHRGPA
- V5 Sera_Nanoparticles Quantitative Value (Normalized Total Spectra): 4.3517
- V5 Sera Alone (Control) Quantitative Value (Normalized Total Spectra): 1.8505

B4: Serum paraoxonase/arylesterase 1 (protein, UniProt P52430 1-355, looked up)
Serum …: MAKLLALTLVGLVLALYKNHRSSYQTRLNAFREVTPVELPNCNLVKGIETGAEDLEILPNGLTFFSTGLKYPGIKSFDPSKPGKILLMDLNKKEPAVSELEIIGNTLDISSFNPHGISTFTDEDNTVYLLVVNHPDSSSTVEVFKFQEEERSLLHLKTITHELLPSINDIAAIGPESFYATNDHYFADPYLRSWEMYLGLSWSNVVYYSPDKVQVVAEGFDFANGIGISLDGKYVYIAELLAHKIHVYEKHANWTLTPLKVLNFDTLVDNISVDPVTGDLWVGCHPNGMRIFFYDAENPPGSEVLRIQNILSEDPKITVVYAENGTVLQGTTVASVYKGKLLIGTVFHKALYCDL
- V5 Sera_Nanoparticles Quantitative Value (Normalized Total Spectra): 4.3517
- V5 Sera Alone (Control) Quantitative Value (Normalized Total Spectra): 15.729

B5: Cluster of Murinoglobulin-1 (protein, UniProt P28665 28-1476, looked up)
Murinoglobulin-1: DSKYMVLVPSQLYTETPEKICLHLYQLNETVTVTASLVSQSGRKNLFDELVLDKDLFQCVSFIIPRLSSSDEEDFLYVDIKGPTHEFSKRKAVLVKNKESVVFVQTDKPVYKPGQSVKFRVVSMDKMLRPLNELLPLAYIEDPKKNRIMQWRDIKTENGLKQMSFSLAAEPIQGPYKIVVHKESGEKEEHSFTVMEFVLPRFNVDLKVPNAMSVNDEVLSVTACGKYTYGKPVPGHVKINVCRETETGCREVNSQLDNNGCSTQEVNITELQSKKRNYEVQLFHVNATVTEEGTGLEFSRSGTTKIERITNKLIFLKADSHFRHGIPFFVKVRLVDIKGDPIPNEKVFIKAQELSYTSATTTDQHGLAEFSIDTTCISGSSLHIKVNHKEEDSCSYFYCMEERHASAKHVAYAVYSLSKSYIYLDTETSSILPCNQIHTVQAHFILKGDLGVLKELIFYYLVMAQGSIIQTGNHTHQVEPGEAPVKGKFALEIPVEFSMVPMAKMLIYTILPDGEVIADSVNFEIEKCLRNKVDLRFSTSQSLPASQTRLQVTASPQSLCGLRAVDQSVLLLKPESELSPSWIYNLPGMQQNKFVPSSRLSEDQEDCILYSSWLAEKHTNLVPHGTEKDVYRYVEDMGLTAFTNLMIKLPIICFDYGMVPISAPRVEFDLAFTPEISWSLRTTLSKRPEEPPRKDPSSNDPLTETIRKYFPETWVWDIVTVNSTGLAEVEMTVPDTITEWKAGALCLSNDTGLGLSSVVPLQAFKPFFVEVSLPYSVVRGEAFMLKATVMNYLPTSMQMSVQLEASPDFTAVPVGDDQDSYCLSANGRHTSSWLVTPKSLGNVNFSVSAEAQQSSEPCGSEVATVPETGRKDTVVKVLIVEPEGIKQEHTFSSLFCASDAEISEKMSLVLPPTVVKDSARAHFSVMGDILSSAIRNTQNLLHMPYGCGEQNMVLFAPNIYVLKYLNETQQLTQKIKTKALGFLRAGYQRELNYKHKDGSYSAFGDQNGEREGNTWLTAFVLKSFAQARAFIFIDESHITHAFTWLSQKQKDNGCFRSSGSLFNNAMKGGVDDEMTLSAYITMALLESSLPATHPVVSKALSCLESSWKTIEQERNASFVYTKALMAYAFALAGNQNKRDEILKSLDEEAIKENNSIHWKRPQKSRKSEHHLYKPQASSAEVEMNAYVVLARLTAQPAPSPEDLTLSMSTIMWLTKQQNSNGGFSSTQDTVVALDALSKYGAVTFSRSQKTTLVTIQSTGSFSQKFQVENSNRLLLQQVALPDIPGDYTISVSGEGCVYAQTMLRYNMHLEKQLSAFAIWVQTVPLTCNNPKGHNSFQISLEISYTGSRPASNMVIADVKMLSGFIPLKPTVKKLERLEHVSRTEVSNNNVLIYLDQVTNQTLAFSFIIQQDIPVRNLQPAIVKVYDYYETDEMAFAEYSSPCSTDKQNV
- V5 Sera_Nanoparticles Quantitative Value (Normalized Total Spectra): 63.099
- V5 Sera Alone (Control) Quantitative Value (Normalized Total Spectra): 61.99

B6: Murinoglobulin-1 (protein, UniProt P28665 28-1476, looked up)
Murinoglobulin-1: DSKYMVLVPSQLYTETPEKICLHLYQLNETVTVTASLVSQSGRKNLFDELVLDKDLFQCVSFIIPRLSSSDEEDFLYVDIKGPTHEFSKRKAVLVKNKESVVFVQTDKPVYKPGQSVKFRVVSMDKMLRPLNELLPLAYIEDPKKNRIMQWRDIKTENGLKQMSFSLAAEPIQGPYKIVVHKESGEKEEHSFTVMEFVLPRFNVDLKVPNAMSVNDEVLSVTACGKYTYGKPVPGHVKINVCRETETGCREVNSQLDNNGCSTQEVNITELQSKKRNYEVQLFHVNATVTEEGTGLEFSRSGTTKIERITNKLIFLKADSHFRHGIPFFVKVRLVDIKGDPIPNEKVFIKAQELSYTSATTTDQHGLAEFSIDTTCISGSSLHIKVNHKEEDSCSYFYCMEERHASAKHVAYAVYSLSKSYIYLDTETSSILPCNQIHTVQAHFILKGDLGVLKELIFYYLVMAQGSIIQTGNHTHQVEPGEAPVKGKFALEIPVEFSMVPMAKMLIYTILPDGEVIADSVNFEIEKCLRNKVDLRFSTSQSLPASQTRLQVTASPQSLCGLRAVDQSVLLLKPESELSPSWIYNLPGMQQNKFVPSSRLSEDQEDCILYSSWLAEKHTNLVPHGTEKDVYRYVEDMGLTAFTNLMIKLPIICFDYGMVPISAPRVEFDLAFTPEISWSLRTTLSKRPEEPPRKDPSSNDPLTETIRKYFPETWVWDIVTVNSTGLAEVEMTVPDTITEWKAGALCLSNDTGLGLSSVVPLQAFKPFFVEVSLPYSVVRGEAFMLKATVMNYLPTSMQMSVQLEASPDFTAVPVGDDQDSYCLSANGRHTSSWLVTPKSLGNVNFSVSAEAQQSSEPCGSEVATVPETGRKDTVVKVLIVEPEGIKQEHTFSSLFCASDAEISEKMSLVLPPTVVKDSARAHFSVMGDILSSAIRNTQNLLHMPYGCGEQNMVLFAPNIYVLKYLNETQQLTQKIKTKALGFLRAGYQRELNYKHKDGSYSAFGDQNGEREGNTWLTAFVLKSFAQARAFIFIDESHITHAFTWLSQKQKDNGCFRSSGSLFNNAMKGGVDDEMTLSAYITMALLESSLPATHPVVSKALSCLESSWKTIEQERNASFVYTKALMAYAFALAGNQNKRDEILKSLDEEAIKENNSIHWKRPQKSRKSEHHLYKPQASSAEVEMNAYVVLARLTAQPAPSPEDLTLSMSTIMWLTKQQNSNGGFSSTQDTVVALDALSKYGAVTFSRSQKTTLVTIQSTGSFSQKFQVENSNRLLLQQVALPDIPGDYTISVSGEGCVYAQTMLRYNMHLEKQLSAFAIWVQTVPLTCNNPKGHNSFQISLEISYTGSRPASNMVIADVKMLSGFIPLKPTVKKLERLEHVSRTEVSNNNVLIYLDQVTNQTLAFSFIIQQDIPVRNLQPAIVKVYDYYETDEMAFAEYSSPCSTDKQNV
- V5 Sera_Nanoparticles Quantitative Value (Normalized Total Spectra): 63.099
- V5 Sera Alone (Control) Quantitative Value (Normalized Total Spectra): 61.99

B7: Vitamin K-dependent protein Z (protein, UniProt Q9CQW3 41-399, looked up)
Vitamin K-dependent protein Z: GSSYFLEEIFQGNLEKECYEEVCNYEEAREVFENDVITDEFWRQYGGGSPCVSQPCLNNGTCEDHIRSYSCTCSPGYEGKTCAMAKNECHLERTDGCQHFCHPGQSSYMCSCAKGYKLGKDQKSCGPSDKCACGALTSEHIRMTKSSQSQPSFPWQVRLTNSEGEDFCAGVLLQEDFVLTTAKCSLLHSNISVKANVDQRIRIKSTHVHMRYDEESGENDVSLLQLEEPLQCPSSGLPVCVPERDFAEHVLIPGTEGLLSGWMLNGTHLATTPMLLSVTQADGEECGQTLNVTVTTRTSCEKGSVVMGPWVEGSVVTREHKGTWFLTGILGSPPPPGQSQMLLLTAVPRYSMWFKQIMK
- V5 Sera_Nanoparticles Quantitative Value (Normalized Total Spectra): 5.4396
- V5 Sera Alone (Control) Quantitative Value (Normalized Total Spectra): 0.9252

B8: Serum amyloid A-4 protein (protein, UniProt P31532 19-130, looked up)
Serum amyloid A-4 protein: DGWYSFFREAVQGTWDLWRAYRDNLEANYQNADQYFYARGNYEAQQRGSGGIWAAKIISTSRKYFQGLLNRYYFGIRNHGLETLQATQKAEEWGRSGKNPNHFRPEGLPEKF
- V5 Sera_Nanoparticles Quantitative Value (Normalized Total Spectra): 4.3517
- V5 Sera Alone (Control) Quantitative Value (Normalized Total Spectra): 10.178

B9: Phosphatidylcholine-sterol acyltransferase (protein, UniProt P16301 25-438, looked up)
Phosphatidylcholine-sterol …: FWLLNVLFPPHTTPKAELSNHTRPVILVPGCLGNRLEAKLDKPDVVNWMCYRKTEDFFTIWLDFNLFLPLGVDCWIDNTRIVYNHSSGRVSNAPGVQIRVPGFGKTESVEYVDDNKLAGYLHTLVQNLVNNGYVRDETVRAAPYDWRLAPHQQDEYYKKLAGLVEEMYAAYGKPVFLIGHSLGCLHVLHFLLRQPQSWKDHFIDGFISLGAPWGGSIKAMRILASGDNQGIPILSNIKLKEEQRITTTSPWMLPAPHVWPEDHVFISTPNFNYTVQDFERFFTDLHFEEGWHMFLQSRDLLERLPAPGVEVYCLYGVGRPTPHTYIYDHNFPYKDPVAALYEDGDDTVATRSTELCGQWQGRQSQPVHLLPMNETDHLNMVFSNKTLEHINAILLGAYRTPKSPAASPSPPPPE
- V5 Sera_Nanoparticles Quantitative Value (Normalized Total Spectra): 4.3517
- V5 Sera Alone (Control) Quantitative Value (Normalized Total Spectra): 6.4766
